Measured values from several laboratories, pooled; numbers as filed in NIAID ChemDB.

All rows: growth or infection tests; species: Mycobacterium avium intracellulare

Blank or dashed fields: not listed here.

structure,endpoint,strain,read by,result
CO[C@H]1/C=C/O[C@@]2(C)Oc3c(C)c(O)c4c(O)c(c(/C=N/N5CCN(C6CCCC6)CC5)c(O)c4c3C2=O)NC(=O)/C(C)=C\C=C\[C@H](C)[C@H](O)[C@@H](C)[C@@H](O)[C@@H](C)[C@H](OC(C)=O)[C@@H]1C,MIC,23-Feb,-,0.5 µg/mL
NC(=O)c1cc[n+](Cc2ccc(C[n+]3ccc(/C=N/O)cc3)s2)cc1.[Cl-].[Cl-],EC50,-,resazurin,>20 µg/mL
CO[C@H]1/C=C/O[C@@]2(C)Oc3c(C)c(O)c4c(O)c(c5c(c4c3C2=O)NC2(CCN(CC(C)C)CC2)N=5)=NC(=O)/C(C)=C\C=C\[C@H](C)[C@H](O)[C@@H](C)[C@@H](O)[C@@H](C)[C@H](OC(C)=O)[C@@H]1C,MIC,CIPT 140310001,-,0.25 µg/mL
C[C@H]1COc2c(N3CCN(C)CC3)c(F)cc3c(=O)c(C(=O)O)cn1c23,MIC50,31 strains,-,25 µg/mL
NC(=O)c1cc[n+](CCCC[n+]2ccccc2/C=N/O)cc1.[Br-].[Br-],EC50,-,resazurin,>20 µg/mL
Oc1ccc(CCN=C=S)cc1,MIC,-,visual reading,32 µg/mL
CN1C(NNC(=O)c2cnccn2)=NS(=O)(=O)c2ccc(Cl)cc21,MIC,ATCC 13950,-,>16 µg/mL
O/N=C/c1ccc[n+](Cc2cc(C[n+]3cccc(/C=N/O)c3)on2)c1.[Br-].[Br-],EC50,-,resazurin,>20 µg/mL
Cc1onc(-c2ccccc2Cl)c1C(=O)N[C@@H]1C(=O)N2[C@@H]1SC(C)(C)[C@@H]2C(=O)O,MIC,CIPT 140310021,-,100 µg/mL
COc1c(N2CCNC(C)C2)c(F)cc2c(=O)c(C(=O)O)cn(C3CC3)c12,MIC90,17 strains,-,3.13 µg/mL
CN1C(NNC(=O)c2ccncc2)=NS(=O)(=O)c2ccccc21,MIC,ATCC 13950,-,>16 µg/mL
ON=Cc1ccc[n+](Cc2csc3ccccc23)c1.[Cl-],EC50,-,resazurin,>20 µg/mL
C[C@@H]1CN(c2c(F)c(N)c3c(=O)c(C(=O)O)cn(C4CC4)c3c2F)C[C@H](C)N1,MIC,ATCC 13950,-,0.3 µg/mL
CC(=O)NC[C@H]1CN(c2ccc(N3CCN(c4ccc([N+](=O)[O-])s4)CC3)c(F)c2)C(=O)O1,MIC,18/98,-,0.25 µg/mL
CCn1c(S)c(N=NC(N)=[NH2+])c2ccccc21,MIC,CNCTC D39/93,-,125 µM
CCC1Cn2cc([N+](=O)[O-])nc2O1,MIC,3 isolates,-,>250 µg/mL
COc1c(O)c2c(=O)cc(OC)c3c4c(OC)cc(=O)c5c(O)c(OC)c6c(c(c1CC(C)(O)C6C(C)=O)c23)c54,MIC,-,-,22.5 µg/mL
CC[C@@H](C)[C@H](O)[C@H](C)[C@@H](C/C=C/C=C/C(N)=O)OC(=O)/C=C/c1ccccc1,MIC,-,-,>100 µg/mL
CC[C@H](C)C(=O)Oc1ccc([C@H]2O[C@@H]2C)cc1,EC50,-,-,2.78 µg/mL
CC1COc2c(N3CCN(C)CC3)c(F)cc3c(=O)c(C(=O)O)cn1c23,MIC90,17 strains,-,50 µg/mL
O=C(NNC1=NS(=O)(=O)c2ccccc2N1c1ccccc1)c1ccncc1,MIC,ATCC 13950,-,>16 µg/mL
C[C@@H](O)[C@H]1C(=O)N2C(C(=O)O)=C(SCCN=CN)C[C@H]12,MIC,CIPT 140310054,-,>10 µg/mL
CN1C(NNC(=O)c2cccnc2)=NS(=O)(=O)c2ccccc21,MIC,ATCC 13950,-,>16 µg/mL
CCOC(=O)C(=O)N=Nc1c(S)n(CC)c2ccccc12,MIC,CNCTC D39/93,-,500 µM
CCCCCCS/C(N)=N/N=C/c1ccc2ccccc2n1,MIC,CNCT D39/93,-,32 µM
COC(=O)C1[C@@H](OC(=O)CC(CCCCCCCCCCC(C)C)OC(=O)CC(C)CC(=O)OC2OC(C)C(OC)C(OC)C2OC)CN(C)C([C@@H](OC2O[C@H](CN)[C@@H](O)[C@H]2O)C2OC(n3ccc(=O)[nH]c3=O)[C@H](O)[C@@H]2O)C(=O)N1C,MIC,E-1 NIHJ-1618,-,0.78 µg/mL
C/C=C/c1ccc(OC(=O)/C(C)=C/C)cc1,EC50,ATCC 19709,-,15 µg/mL
O=C1C(=S)N(c2ccccc2)c2ccccc21,MIC,CNCTC D39/93,-,63 µM
CC1COc2c(N3CCN(C)CC3)c(F)cc3c(=O)c(C(=O)O)cn1c23,MIC50,31 strains,-,25 µg/mL
C[C@H]1CN(c2c(F)cc3c(=O)c(C(=O)O)cn(C4CC4)c3c2OC(F)F)CCN1,MIC90,17 strains,-,3.13 µg/mL
NC(=S)N=Nc1c(S)n(-c2ccccc2)c2ccccc12,MIC,CNCTC D38/92,-,125 µM

Repeating the final 2 entries:

structure,endpoint,strain,read by,result
C[C@H]1CN(c2c(F)cc3c(=O)c(C(=O)O)cn(C4CC4)c3c2OC(F)F)CCN1,MIC90,17 strains,-,3.13 µg/mL
NC(=S)N=Nc1c(S)n(-c2ccccc2)c2ccccc12,MIC,CNCTC D38/92,-,125 µM

Lines come from different laboratories, so protocols vary. ECn: concentration that inhibits the pathogen or its effect by n%. MIC50, MIC90 and the like: level of inhibition, or share of isolates inhibited.